Results of unrelated studies side by side (data: NIAID ChemDB).

Common to all: tests in culture; species: Vaccinia virus; endpoint: inhibition

Neighbouring rows are from separate reports. Blank or dashed fields: not listed here. Inhibition is in % at the dose shown (toxicity tests: loss of growth or viability).

compound | strain | cell line | tested at | result
CO[C@H]1/C=C/O[C@@]2(C)Oc3c(C)c(O)c4c(O)c(c(/C=N/NC(=O)CN5CCN(c6ccc(C(F)(F)F)cc6)CC5)c(O)c4c3C2=O)NC(=O)/C(C)=C\C=C\[C@H](C)[C@H](O)[C@@H](C)[C@@H](O)[C@@H](C)[C@H](OC(C)=O)[C@@H]1C | - | L929 | 50 µg/mL | 0%
Cc1ccc2ncc3c(=O)n(-c4ccc(F)cc4)[nH]c3c2c1 | WR | BSC-40 | 100 µM | 68%
CO[C@H]1/C=C/O[C@@]2(C)Oc3c(C)c(O)c4c(O)c(c(/C=N/NC(=O)CN5CCN(c6ccc(Cl)cc6)CC5)c(O)c4c3C2=O)NC(=O)/C(C)=C\C=C\[C@H](C)[C@H](O)[C@@H](C)[C@@H](O)[C@@H](C)[C@H](OC(C)=O)[C@@H]1C | - | L929 | 50 µg/mL | 0%
Cc1ccccc1Cn1cnc(=N)c2[nH]cnc21 | - | BSC-1 | 25 µg/mL | 0%
COc1ccc(N2CCN(CC(=O)N/N=C/c3c4c(O)c5c(O)c(C)c6c(c5c3O)C(=O)[C@@](C)(O/C=C/[C@H](OC)[C@@H](C)[C@@H](OC(C)=O)[C@H](C)[C@H](O)[C@H](C)[C@@H](O)[C@@H](C)/C=C/C=C(/C)C(=O)N4)O6)CC2)cc1 | - | L929 | 50 µg/mL | 0%
N=c1ncn(Cc2ccco2)c2nc[nH]c12 | - | BSC-1 | 25 µg/mL | 0%
Cc1nnc2nc3c(nn12)c1ccccc1n3C | WR | BSC-1 | 60 µg/mL | 90%
CN(C)CCN1C(=O)c2cccc3cc(N)cc(c23)C1=O | - | VERO | 4 µg/mL | 0%
O=c1c2cnc3cc(F)ccc3c2[nH]n1-c1ccc(F)cc1 | WR | BSC-40 | 100 µM | 55%
CCc1ccc(N2CCN(CC(=O)N/N=C/c3c4c(O)c5c(O)c(C)c6c(c5c3O)C(=O)[C@@](C)(O/C=C/[C@H](OC)[C@@H](C)[C@@H](OC(C)=O)[C@H](C)[C@H](O)[C@H](C)[C@@H](O)[C@@H](C)/C=C/C=C(/C)C(=O)N4)O6)CC2)cc1 | - | L929 | 50 µg/mL | 0%
COc1ccc(-n2[nH]c3c(cnc4ccc(C)cc43)c2=O)cc1 | WR | BSC-40 | 100 µM | 33%
Cn1cc(NC(=O)c2cc(NC(=O)c3cc([N+](=O)[O-])cn3C)cn2C)cc1C(=O)NCCC(=N)N | Noguchi | BSC-1 | 25 µg/mL | 0%
CO[C@H]1/C=C/O[C@@]2(C)Oc3c(C)c(O)c4c(O)c(c(/C=N/NC(=O)CN5CCN(c6ccc(C(C)C)cc6)CC5)c(O)c4c3C2=O)NC(=O)/C(C)=C\C=C\[C@H](C)[C@H](O)[C@@H](C)[C@@H](O)[C@@H](C)[C@H](OC(C)=O)[C@@H]1C | - | L929 | 50 µg/mL | 0%
CCCn1cnc(=N)c2[nH]cnc21 | - | BSC-1 | 12 µg/mL | 0%
CO[C@H]1/C=C/O[C@@]2(C)Oc3c(C)c(O)c4c(O)c(c(/C=N/NC(=O)CN5CCN(c6ccc(Oc7ccccc7)cc6)CC5)c(O)c4c3C2=O)NC(=O)/C(C)=C\C=C\[C@H](C)[C@H](O)[C@@H](C)[C@@H](O)[C@@H](C)[C@H](OC(C)=O)[C@@H]1C | - | L929 | 50 µg/mL | 0%
Cc1ccc(-n2nc3c4ccccc4n(C4O[C@H](CO)[C@@H](O)[C@H]4O)cc-3c2=O)cc1 | WR | BSC-40 | 100 µM | 30%
CN1C(=O)NC(=O)N([C@H]2C[C@H](O)[C@@H](CO)O2)C1(C)C | - | VERO | 25 µM | 28%
COc1ccc(-n2nc3c4cc(C)ccc4n(C4O[C@H](CO)[C@@H](O)[C@H]4O)cc-3c2=O)cc1 | WR | BSC-40 | 100 µM | 48%
N=c1ncn(Cc2ccc(Cl)cc2Cl)c2nc[nH]c12 | - | BSC-1 | 12 µg/mL | 0%
CO[C@H]1/C=C/O[C@@]2(C)Oc3c(C)c(O)c4c(O)c(c(/C=N/NC(=O)CN5CCN(c6ccccc6)CC5)c(O)c4c3C2=O)NC(=O)/C(C)=C\C=C\[C@H](C)[C@H](O)[C@@H](C)[C@@H](O)[C@@H](C)[C@H](OC(C)=O)[C@@H]1C | - | L929 | 50 µg/mL | 0%
Cn1cc(NC(=O)c2cc(NC(=O)c3cc(NC(=O)c4cc(NC(=O)c5cc(NC=O)cn5C)cn4C)cn3C)cn2C)cc1C(=O)NCCC(=N)N | Noguchi | BSC-1 | 75 µg/mL | 57%
Cc1ccc2c(c1)c1nn(-c3ccc(F)cc3)c(=O)c-1cn2C1O[C@H](CO)[C@@H](O)[C@H]1O | WR | BSC-40 | 100 µM | 18%